Laboratory results as given in paper PMC8227227 (Viruses, 2021).

Biological target: T1, HIV-1 PR (Human immunodeficiency virus type 1 group M subtype B, UniProt P04585)
T1 construct: assayed as substrates of the HIV-1 protease (PR)
Experiment: Enzyme assay with synthetic oligopeptide substrates (RP-HPLC)
Format: biochemical, human immunodeficiency virus type 1 (HIV-1)
Details: Table 3; kcat/Km (from Km and kcat) of mutant compared with wild-type

Sequence | kcat/Km Fold-Change
KIVKICFGCGKR [peptide 17, revertant NC-1 cleavage site peptide […]] | 8.75
RKIVICFGCGKR [peptide 16, revertant NC-1 cleavage site peptide […]] | 24.25
